Measured values reported in article PMC11466185, “Mechanisms and efficacy of small molecule latency-promoting agents to inhibit HIV reactivation ex vivo” (JCI Insight, 2024).
Several values for one entry are separate records, joined by “and”; a condition that tells them apart may be missing. Equal entries are not always repeated. Where two headings read alike, the source gives them in different places.

Legend:
PBMCs [1] = experiment: Cell viability by trypan blue staining after 24 hours; type: cell-based, human
Description: Figure 1 Screening of candidate LPAs by measuring the change in multiply spliced HIV transcripts after activation. Each drug was tested in PBMCs from 2 ART-suppressed study participants (denoted in the legend by varying symbol shapes). PBMCs were aliquoted into wells at 6 × 10^6 cells/well. After activation, the cells were cultured with antiretrovirals in the presence of individual drugs in DMSO or DMSO alone as control. All conditions were tested in the presence of CD3/28 T cell–activating beads, except for the unactivated DMSO condition. (A) After 24 hours, the viability was measured by trypan blue staining and then normalized to the levels of the activated DMSO (% of activated DMSO). Bars indicate medians. (B) Total cellular RNA was extracted, and the levels of multiply spliced HIV transcripts (TatRev) were measured by RT-ddPCR, normalized to 1 μg of total cellular RNA, and expressed as a percentage of the activated DMSO control (% of activated DMSO). RT-dd, reverse transcription digital droplet; vRNA, viral RNA; HAT, histone acetyltransferase.
(§1) For quantification of cell-associated HIV transcripts, PBMCs were harvested either after 24 hours or after 6 days. The cell viabilities were measured by trypan blue staining; then the cells were pelleted by centrifuging at 300g for 6 minutes and stored at –80°C. For quantification of virion-associated HIV RNA, cell culture supernatant was collected from 6 × 10^6 PBMCs that were treated and activated for 6 days as described above. Residual cells and cellular debris were subsequently removed from the supernatant by differential centrifugation (300g for 6 minutes, then 20,000g for 10 minutes), and the supernatant was stored at –80°C.

PBMCs [2] = type: cell-based, human; conditions: 6 days after αCD3/28 activation, each row one participant
Description: Next, we evaluated the ability of the candidate LPAs to sustain the inhibitory effects during a prolonged ex vivo culture. To this end, PBMCs were cultured in the presence of individual drugs in DMSO or in DMSO alone as control, activated (anti-CD3/CD28), and harvested after 6 days. […] Ruxolitinib and triptolide caused sustained reductions in initiated HIV transcripts (medians relative to activated DMSO: 27%, P = NS and 1%, P = 0.03, respectively; Figure 4A and Table 3). […] However, we decided to test the drug on day 6 because extra cells were available from some study participants.
as §1
Figure S4. […] A) After six days, the viability was measured by trypan blue staining and then normalized to the levels of the activated DMSO (% of activated DMSO). […]

mithramycin A
Viability (Fig 1A) (PBMCs [1]; study participant 150b): 103.906 % of activated DMSO
Viability (Fig 1A) (PBMCs [1]; study participant 2147b): 89.3 % of activated DMSO
Cell viability (DMSO αCD3/28 = 100) (PBMCs [2]; 25nM): 97.1 and 96.36 and 105.2 and 100.16 and 85.21 and 82.9 and 109.3

COc1ccc(-c2cc(=O)c3c(O)cc(O)c(-c4cc(-c5cc(=O)c6c(O)cc(O)cc6o5)ccc4OC)c3o2)cc1 [isoginkgetin]
Cell viability (DMSO αCD3/28 = 100) (PBMCs [2]; 25μM): 109

CN1CC[C@H](c2c(O)cc(O)c3c(=O)cc(-c4ccccc4Cl)oc23)[C@H](O)C1 [alvocidib]
Viability (Fig 1A) (PBMCs [1]; study participant 152): 105.47 % of activated DMSO
